A short description of this experiment: qHTS Assay for Anthrax Lethal Toxin Internalization. Also: nearly all actives have a fitted effect of over 50% in size. To be noted: Cells, FRET ratio (460/530).
Setting [1] is: at 40 µM (top of the series) unless noted.

Our source for the activity change, negative = inhibition values is PubChem BioAssay AID912 (National Center for Advancing Translational Sciences (NCATS), 2007).

Several values for one entry are separate records, joined by “and”; a condition that tells them apart may be missing. Equal entries are not always repeated. The entries are a selection whose mix differs from that of the whole data set. Inconclusive results are not listed. Activity calls are given as the source filed them. Calls follow the shape of the full dose curve.
% is scaled to controls: 0 for no effect and ±100 for the full control effect.

For the compound `O=P1(Nc2ncccn2)COc2ccccc2OC1`, under setting [1], the activity change, negative = inhibition is inactive: 10%.
On to `O=P1(Nc2ccc(Br)cn2)COc2ccccc2OC1`, for which the activity change, negative = inhibition under setting [1] is inactive: -12%.
Still for that read-out and setting: then `Cc1nn(-c2ccccc2)c2c1P(=O)(N1CCOCC1)N(C)C(c1ccccc1)=N2` (centres undefined), with inactive: 11.5%; and `CN(C(=O)Cc1ccc(Cl)c(Cl)c1)[C@@H]1CCCC[C@H]1N1CCCC1`, with inactive: -5.67% and inactive: -22% and inactive: -6.25%; and `Cc1nc2ccc3ccccc3c2s1.O=[N+]([O-])c1cc([N+](=O)[O-])c(O)c([N+](=O)[O-])c1`, with inactive: -14.2%.
As to `O=P1(Nc2ccccn2)COc2ccccc2OC1`, the activity change, negative = inhibition under setting [1] is inactive: -4%.
Same read-out and setting: then `CN(CCCl)Cc1cc(Cl)c(NC2=NCCN2)c(Cl)c1`, with inactive: -8.29%; and `Clc1n[nH]nc1-c1nn[nH][15n]1`, with inactive: 2.14%; and `O=C(CC(=O)c1ccccc1)O[C@H]1CN2CCC1CC2`, with inactive: 11.3% [at 8 µM].
Take `NS(=O)(=O)Cc1ccc([As](=O)(O)O)cc1`: the activity change, negative = inhibition under setting [1] was inactive: -3.73% [at 8 µM].
For `Cc1ccc(C)c(NP(C)(=O)Oc2ccccc2)c1` (centres undefined), the activity change, negative = inhibition under setting [1] is inactive: -9.34%.
On the same count and under the same terms, then `CN(C(=O)Cc1ccc(Cl)c(Cl)c1)[C@@H]1CC[C@@]2(CCCO2)C[C@H]1N1CCCC1`, with inactive: -9.52%.
Take `NC(=O)Nc1ccc([As](=O)(O)O)cc1`: the activity change, negative = inhibition (at 3.58 µM (top of the series)) was inactive: -9.08% and the activity change, negative = inhibition (at 40 µM (top of the series)) was inactive: -7.57%.
As for `CCOP1(=S)c2c(C)nn(CCC#N)c2N=C(c2ccc(F)cc2)N1C` (centres undefined), the activity change, negative = inhibition under setting [1] was inactive: -9.2%.
As for `Cc1ccc([N+](=O)[O-])cc1[N+](=O)[O-]`, the activity change, negative = inhibition under setting [1] is inactive: -6.67%.
On to `CCOP1(=S)c2c(C)nn(CCC#N)c2N=C(c2ccccc2F)N1C` (centres undefined), for which the activity change, negative = inhibition under setting [1] was inactive: -11%.
The same measure, in the same setting: then `O=[As](O)(O)c1ccc([As](=O)(O)O)cc1`, with inactive: -10.2% [at 8 µM]; and `Cc1ccc(NP(C)(=O)Oc2ccccc2)c(C)c1` (centres undefined), with inactive: -3.36%; and `COc1ccccc1OP(C)(=O)Nc1ccc(C)cc1` (centres undefined), with inactive: -5.08%.
On the same count and under the same terms, then `O=C(OC1CN2CCC1CC2)C12CC3CC(CC(C3)C1)C2` (centres undefined), with inactive: -18.7%; and `NC(=O)Nc1cc([As](=O)(O)O)cc(I)c1O`, with inactive: -6.26% [at 8 µM]; and `CCOP(C)(=S)SCC(=O)NC(C)C(=O)O` (centres undefined), with inactive: -4.71%.
On the same count and under the same terms, the figure for `COP1(=S)c2c(C)nn(CCC#N)c2N=C(c2ccc(F)cc2)N1C` (centres undefined) is inactive: -12.3%.
Turning to `O=C(O)[C@@H](O)c1ccc([As](=O)(O)O)cc1`, the activity change, negative = inhibition under setting [1] is inactive: 0.818% [at 8 µM].
Regarding `O=C(COc1ccccc1)OC1CN2CCC1CC2` (centres undefined), the activity change, negative = inhibition under setting [1] is inactive: -19.2%.
On the same count and under the same terms, then `CP(=O)(NC(=O)Nc1ccccc1)Oc1ccccc1` (centres undefined), with inactive: -3.51%.
Same read-out and setting: then `CP(=S)(Nn1cnnc1)Oc1ccccc1` (centres undefined), with inactive: 2.56%; and `N1=C(c2nnc(-c3nn[nH]n3)nn2)NNN1`, with inactive: -6% [at 8 µM]; and `C/C1=C2N=C(/C=C3N=C(/C(C)=C4\[N-][C@@](C)([C@H]5N=C1[C@@](C)(CCC(=O)NC[C@H](C)OP(=O)([O-])O[C@@H]1[C@H](O)[C@H](n6cnc7cc(C)c(C)cc76)O[C@@H]1CO)[C@@H]5CC(N)=O)[C@](C)(CC(N)=O)[C@H]4CCC(N)=O)[C@@](C)(CC(N)=O)[C@@H]\3CCC(N)=O)C(C)(C)[C@@H]/2CCC(N)=O.[C-]#N.[Co+3]`, with inactive: 0.989% [at 3.58 µM].
For `CN(C(=O)Cc1ccccc1)[C@@H]1CC[C@@]2(CCCO2)C[C@H]1N1CCCC1`, under setting [1], the activity change, negative = inhibition was inactive: 7.51%.
`N#[O+].[C-]#N.[C-]#N.[C-]#N.[C-]#N.[C-]#N.[Fe+2].[Na+].[Na+]`: the activity change, negative = inhibition under setting [1] is inactive: 6.09%.
Regarding `COc1ccccc1OP(C)(=O)Nc1c(C)n(C)n(-c2ccccc2)c1=O` (centres undefined), the activity change, negative = inhibition under setting [1] was inactive: -8.35%.
Consider `NCC[C@@H](N)CSP(=O)(O)O`, for which the activity change, negative = inhibition under setting [1] is inactive: -10.8% [at 8 µM].
Still for that read-out and setting: then `CP(=O)(Nc1ccccn1)Oc1ccccc1` (centres undefined), with inactive: -4.45%; and `O=[N+]([O-])c1ccc(C[As](=O)(O)O)cc1`, with inactive: 1.97% [at 8 µM]; and `[N-]=[N+]=NCC(O)CN=[N+]=[N-]` (centres undefined), with inactive: -4.66% [at 8 µM].
The same measure, in the same setting: then `C(Cc1nn[nH]n1)c1nn[nH]n1`, with inactive: 8.03% [at 8 µM]; and `CN(C(=O)Cc1ccc(Cl)c(Cl)c1)[C@H]1CCCC[C@@H]1N1CCCC1`, with inactive: -14.6% and inactive: -15.4%.
On the same count and under the same terms, the figure for `COc1ccccc1OP(C)(=O)Nc1ccc(C)c(C)c1` (centres undefined) is inactive: -16.4%; for `COC(=O)c1cc2c(s1)N=C(c1ccccc1)N(C)P2(=O)N1CCOCC1` (centres undefined) it is inactive: 0.621%.
For `Cc1cccc([N+](=O)[O-])c1[N+](=O)[O-]`, the activity change, negative = inhibition under setting [1] was inactive: 13.4%.
Turning to `CCC(C)(OO)OOC(C)(CC)OO` (centres undefined), under setting [1], the activity change, negative = inhibition is inactive: -3.33%.
`O=P1(Nc2nc3ccc(Cl)cc3s2)COc2ccccc2O1` (centres undefined): the activity change, negative = inhibition under setting [1] was inactive: -5.87%.
For the compound `CP(=O)(Nc1ccccc1F)Oc1ccccc1` (centres undefined), the activity change, negative = inhibition under setting [1] was inactive: 8.63%.
For `CP(=O)(Nc1ccc2c(c1)OCCO2)Oc1ccccc1` (centres undefined), the activity change, negative = inhibition under setting [1] is inactive: 16.1%.
On the same count and under the same terms, the figure for `NNC(NN)NN.n1nc(-c2nn[nH]n2)n[nH]1` is inactive: 4.61% [at 8 µM].
Regarding `C[C@@H](O)COc1ccc([As](=O)(O)O)cc1N`, the activity change, negative = inhibition under setting [1] was inactive: 7.22% [at 8 µM].
Still for that read-out and setting: the figure for `Cc1ccccc1NP(C)(=O)Nc1ccccc1C` is inactive: -7.77%; for `O=P(Nc1nccs1)(c1ccccc1)c1ccccc1` it is inactive: 5.91%.
Same read-out and setting: the figure for `CCOP(=O)(CC)OCC` is inactive: 8.68%; for `c1nnnn1CCn1cnnn1` it is inactive: 12.2%; for `CCOP(C)(=S)SCC(=O)NC(C)(CC)C(=O)O` (centres undefined) it is inactive: 7.68%.
On the same count and under the same terms, then `Cc1ccc([N+](=O)[O-])c([N+](=O)[O-])c1`, with inactive: 18.4%; and `Cc1c([N+](=O)[O-])cccc1[N+](=O)[O-]`, with inactive: 7.01%; and `O=C(OC1CN2CCC1CC2)c1cccc(Cl)c1` (centres undefined), with inactive: -13.3%.
For `[N-]=[N+]=Nc1ccc([As](=O)(O)O)cc1`, under setting [1], the activity change, negative = inhibition was inactive: -0.571% [at 8 µM].
On the same count and under the same terms, the figure for `Cc1cc([N+](=O)[O-])cc([N+](=O)[O-])c1O` is inactive: -3.98%; for `CN(C)CCOC(=O)C(O)(c1ccccc1)C1CCCCC1` (centres undefined) it is inactive: -8.26%.
